Experimental data from publication PMC6475865.
Construct, isoform or probe ends are uncertain for at least one entry.

Tests used:
[1] = test system: Integrase IN_A (HIV-1 subtype A strain FSU-A); test: fluorescence polarization kinetics; conditions: 7.5 mM Mg2+, 100 nM IN, 10 nM DNA, kon 0.24 ± 0.02 min-1; 20 mM HEPES pH 7.2, 10 mM DTT, 7.5 mM MgCl2, 25 C; DRaCALA: 5 nM DNA, 0-500 nM IN, 20 min; recombinant protein; label: 5'-fluorescein on U5B
[2] = test system: Integrase IN_CRF consensus; test: fluorescence polarization kinetics; conditions: 7.5 mM Mg2+, 100 nM IN, 10 nM DNA, kon 0.69 ± 0.09 min-1; 20 mM HEPES pH 7.2, 10 mM DTT, 7.5 mM MgCl2, 25 C; DRaCALA: 5 nM DNA, 0-500 nM IN, 20 min; recombinant protein; label: 5'-fluorescein on U5B

“GTGTGGAAAATCTCTAGCAGT (double strand) [5'-Fl-U5B/U5A duplex]”: binds [1]; binds [2].
